# Data taken from publication PMC10691697, “A small molecule exerts selective antiviral activity by targeting the human cytomegalovirus nuclear egress complex” (PLOS Pathogens, 2023).
# By UniProt entry, the sequences of proteins in these tests, tags left out. Residues count along the entry.
# UniProt P16794, 50-292 limits assumed: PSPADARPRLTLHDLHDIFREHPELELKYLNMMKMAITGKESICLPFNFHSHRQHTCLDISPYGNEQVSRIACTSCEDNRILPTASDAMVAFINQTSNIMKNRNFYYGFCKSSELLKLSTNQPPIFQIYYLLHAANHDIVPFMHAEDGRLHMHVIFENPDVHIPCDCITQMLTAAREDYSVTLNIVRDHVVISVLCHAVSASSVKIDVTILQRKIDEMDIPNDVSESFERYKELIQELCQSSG
# UniProt P16794, 50-292 C214S limits assumed: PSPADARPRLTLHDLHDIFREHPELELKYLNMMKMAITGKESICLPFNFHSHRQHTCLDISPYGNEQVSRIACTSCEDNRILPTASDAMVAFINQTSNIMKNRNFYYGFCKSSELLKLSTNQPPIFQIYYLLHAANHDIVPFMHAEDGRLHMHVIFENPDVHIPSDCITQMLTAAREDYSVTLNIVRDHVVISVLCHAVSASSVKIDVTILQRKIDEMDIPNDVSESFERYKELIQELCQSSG
# UniProt P16794, 50-292 C288S limits assumed: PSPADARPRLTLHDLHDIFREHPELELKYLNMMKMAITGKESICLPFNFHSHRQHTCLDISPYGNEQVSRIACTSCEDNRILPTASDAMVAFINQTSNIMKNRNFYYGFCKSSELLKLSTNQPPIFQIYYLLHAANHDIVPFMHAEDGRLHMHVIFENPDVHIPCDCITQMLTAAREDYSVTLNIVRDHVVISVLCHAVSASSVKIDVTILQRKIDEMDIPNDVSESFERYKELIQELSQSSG
# UniProt P16794, 50-292 C159S limits assumed: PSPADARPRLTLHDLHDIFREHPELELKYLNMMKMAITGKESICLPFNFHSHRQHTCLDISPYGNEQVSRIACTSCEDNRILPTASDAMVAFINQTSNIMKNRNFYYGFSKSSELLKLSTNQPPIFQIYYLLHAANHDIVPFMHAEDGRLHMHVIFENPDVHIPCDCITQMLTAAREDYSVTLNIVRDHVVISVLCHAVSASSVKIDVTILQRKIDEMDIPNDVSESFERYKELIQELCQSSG
# UniProt P10226, 1-340 limits assumed: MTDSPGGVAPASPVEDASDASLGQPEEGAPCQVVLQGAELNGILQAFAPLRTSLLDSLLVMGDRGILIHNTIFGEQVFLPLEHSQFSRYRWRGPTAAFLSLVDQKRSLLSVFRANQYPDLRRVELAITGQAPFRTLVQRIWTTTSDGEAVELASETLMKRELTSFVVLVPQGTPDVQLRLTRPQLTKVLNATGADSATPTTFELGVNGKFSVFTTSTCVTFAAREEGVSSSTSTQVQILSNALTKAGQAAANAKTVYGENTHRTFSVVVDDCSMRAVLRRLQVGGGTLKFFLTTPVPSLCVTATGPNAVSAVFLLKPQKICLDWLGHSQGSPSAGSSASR
# Values joined by “and” are separate entries in the source; they are usually repeats but may differ in a detail not shown here. Equal values may be shown once. Read-outs that look alike come from different tables or passages of the source.
# Assays:
# [1] = target: HCMV UL50-UL53 (Human cytomegalovirus, UniProt P16794); settings: for IC50: read-out: IC50 (50% inhibitory concentration), HTRF assay
# [2] = test system: HFF cells; settings: for CC50: read-out: CC50, cytotoxicity on HFF, WST-1, six days, in parallel with automated plaque reduction assay
# [3] = test system: HCMV expressing GFP (53-F BADGFP); settings: for ED50, HCMV plaque formation: HFF, automated plaque reduction assay, 6 dpi; for CC50/ED50: anti-HCMV ED50 (APRA) and parallel WST-1 CC50
# [4] = target: UL53_C214S+UL50 (Human cytomegalovirus, UniProt P16794, C214S); assay: HTRF assay, UL53 mutant C214S with WT UL50; format: binding; settings: for effect of UL53 C214S substitution on inhibition of NEC interactions: HTRF, concentrations as high as 50 μM
# [5] = target: HSV-1 P30-UL42 (Human herpesvirus 1, UniProt P10226)
# [6] = target: UL53_C288S+UL50 (Human cytomegalovirus, UniProt P16794, C288S); assay: HTRF assay, UL53 mutant C288S with WT UL50; format: binding; settings: 50.00 μM
# [7] = target: UL53_C159S+UL50 (Human cytomegalovirus, UniProt P16794, C159S); assay: HTRF assay, UL53 mutant C159S with WT UL50; format: binding
Structure (SMILES),IC50 [1],CC50 [2],"ED50, HCMV plaque formation [3]",CC50/ED50 [3],effect of UL53 C214S substitution on inhibition of NEC interactions [4],"anti-HCMV, antiviral activities (S7 Fig) ([3]; 50.00 μM)",other results
C=CC(=O)Nc1cccc(Oc2cc(N3CCC(C(=O)O)CC3)nc3[nH]ccc23)c1,50 µM,> 50 µM,> 50 µM,,,,
C=CC(=O)Nc1ccc(Oc2cc(Cl)nc3[nH]ccc23)cc1,> 50 µM,38 µM,16 µM,2.4,,,
C=CC(=O)Nc1cccc(Oc2cc(N3CCC(O)CC3)nc3[nH]ccc23)c1,50 µM,> 50 µM,22 µM,,,,
CCN(CC)C/C=C/C(=O)Nc1ccc(Oc2cc(C)nc3[nH]ccc23)cc1,> 50 µM,12 µM,2 µM,6,,,
C=CC(=O)Nc1ccc(Oc2ccnc3[nH]ccc23)cc1,17 µM,33 µM,1.8 µM,,essentially eliminated inhibition,0.0000,
CCN(CC)C/C=C/C(=O)Nc1ccc(Oc2cc(Cl)nc3[nH]ccc23)cc1,,,,,,,"IC50 ([1]; tested form: TFA): > 50 µM; CC50 ([2]; tested form: TFA): 10 µM; ED50, HCMV plaque formation ([3]; tested form: TFA): 2 µM; CC50/ED50 ([3]; tested form: TFA): 5"
C=CC(=O)Nc1cccc(Oc2cccc3[nH]ccc23)c1,9.9 µM,50 µM,17.5 µM,3,,,
C=CC(=O)Nc1cccc(Oc2ncnc3[nH]ccc23)c1,> 50 µM,45 µM,18 µM,2.5,,,
C=CC(=O)Nc1ccc(Oc2cc(C)nc3[nH]ccc23)cc1,27 µM,47 µM,1.4 µM,,not greatly reduced,0.0000,"UL53_C214S+UL50, inhibitory activities against the interaction ([4]; 1.56 μM): 119.0000 and 134.0000 and 125.0000; UL53_C214S+UL50, inhibitory activities against the interaction ([4]; 50.00 μM): 61.0000 and 74.0000 and 70.0000; HSV1 P30-UL42, inhibitory activities in HTRF assay ([5]; 0.40 μM, 0.4 µM): 102.0000 and 97.0000 and 100.0000; HSV1 P30-UL42, inhibitory activities in HTRF assay ([5]; 0.80 μM, 0.8 µM): 103.0000 and 93.0000 and 99.0000; HSV1 P30-UL42, inhibitory activities in HTRF assay ([5]; 1.60 μM, 1.6 µM): 107.0000 and 95.0000 and 102.0000; HSV1 P30-UL42, inhibitory activities in HTRF assay ([5]; 6.25 μM): 104.0000 and 98.0000; HSV1 P30-UL42, inhibitory activities in HTRF assay ([5]; 12.50 μM, 12.5 µM): 107.0000 and 96.0000 and 91.0000; HSV1 P30-UL42, inhibitory activities in HTRF assay ([5]; 50.00 μM): 103.0000 and 89.0000 and 86.0000; UL53_C288S+UL50, inhibitory activities against the interaction [6]: 72.0000 and 74.0000 and 75.0000; cytotoxicity (S7 Fig) ([2]; 0.40 μM): 100.0000; cytotoxicity (S7 Fig) ([2]; 0.80 μM): 100.0000; cytotoxicity (S7 Fig) ([2]; 1.60 μM): 100.0000; cytotoxicity (S7 Fig) ([2]; 12.50 μM): 100.0000; cytotoxicity (S7 Fig) ([2]; 50.00 μM): 38.0000 and 45.0000 and 40.0000; anti-HCMV, antiviral activities (S7 Fig) ([3]; 0.40 μM): 59.0000 and 60.0000 and 65.0000; anti-HCMV, antiviral activities (S7 Fig) ([3]; 0.80 μM): 55.0000 and 60.0000; anti-HCMV, antiviral activities (S7 Fig) ([3]; 1.60 μM): 45.0000 and 50.0000; anti-HCMV, antiviral activities (S7 Fig) ([3]; 12.50 μM): 23.0000 and 25.0000 and 26.0000"
C=CC(=O)Nc1cccc(Oc2cc(C)nc3[nH]ccc23)c1,9.9 µM,25 µM,2.1 µM,,essentially eliminated inhibition,0.0000,"HCMV UL50-UL53, inhibitory activities in HTRF assay ([1]; 1.6 µM): 86.0000 and 87.0000; WT, inhibitory activities against the interactions of WT UL50 and UL53 ([1]; 6.25 μM): 60.0000 and 61.0000; HSV1 P30-UL42, inhibitory activities in HTRF assay ([5]; 0.40 μM): 100.0000; HSV1 P30-UL42, inhibitory activities in HTRF assay ([5]; 0.80 μM): 100.0000; HSV1 P30-UL42, inhibitory activities in HTRF assay ([5]; 1.60 μM): 100.0000; HSV1 P30-UL42, inhibitory activities in HTRF assay ([5]; 6.25 μM): 100.0000; HSV1 P30-UL42, inhibitory activities in HTRF assay ([5]; 12.50 μM): 100.0000; HSV1 P30-UL42, inhibitory activities in HTRF assay ([5]; 50.00 μM): 100.0000; HSV1 P30-UL42, inhibitory activities in HTRF assay ([5]; […]): 100.0000; inhibition in the HSV-1 P30-UL42 counterscreen assay ([5]; all concentrations tested (up to 50 μM)): without affecting P30-UL42 interactions; UL53_C159S+UL50, inhibitory activities against the interaction [7]: 93.0000"
